The subject of this experiment is BAE cells. The following applies: read-out: IC50 for viability, 24 hours.

In the case of phenylarsenoxide, the IC50 was below 0.1 µM. The result for “a mixture of 4-(N-(6-(fluorescein-5-carboxamido)hexanoyl)amino)phenylarsenoxide and 4-(N-(6-(fluorescein-6-carboxamido)hexanoyl)amino)phenylarsenoxide” reads above 200 µM.

These data come from patent publication US7186695B2, “Treatment of arthritis with arsenoxide compounds” (priority 2001, dated 2007).
